These results are taken from patent US11331371B2, “Labyrinthopeptins as anti-viral agents” (Helmholtz-Zentrum Für Infektionsforschung GMBH, priority 2015, dated 2022).

By IC50 is commonly meant the concentration at which inhibition is half-maximal.

Some results are limits rather than exact numbers.

The experiment deals with TBEV (Toro isolate). To be noted: Vero-B4 cells, MOI 0.01, 3 days, estimated by visual inspection.

With `CC(C)C[C@@H]1NC(=O)[C@]23CSC[C@H](NC(=O)[C@H](C)NC(=O)[C@H](Cc4ccccc4)NC1=O)C(=O)N[C@H](C(=O)O)CSSC[C@H](NC(=O)[C@@H]1CSC[C@]4(C[C@H](N)C(=O)N[C@@H](CC(=O)O)C(=O)N[C@@H](Cc5c[nH]c6ccccc56)C(=O)N4)C(=O)N[C@@H](CC(C)C)C(=O)N[C@@H](Cc4c[nH]c5ccccc45)C(=O)N[C@@H](CCC(=O)O)C(=O)N1)C(=O)N[C@@H](C2)C(=O)N[C@@H]([C@@H](C)O)C(=O)NCC(=O)N3` [LabyA2, Labyrinthopeptin A2], the “IC50 of the anti-viral activity, TBEV” value was greater than 50 µg/mL. Besides, the concentration for half-maximal inhibition (IC50) (read-out: IC50 of the anti-viral activity, TBEV) was greater than 26 µM.
